Experimental data reported in patent US20240317834A1, “COMPOSITIONS AND METHODS FOR NEUROLOGICAL DISEASES” (CODA BIOTHERAPEUTICS, published 2024).

Legend:
[1] = biological target: T1, CODA1048 (R101F, Y210F in SEQ ID NO: 33) (human (chimera of human α7-nAChR and …))
T1 chain: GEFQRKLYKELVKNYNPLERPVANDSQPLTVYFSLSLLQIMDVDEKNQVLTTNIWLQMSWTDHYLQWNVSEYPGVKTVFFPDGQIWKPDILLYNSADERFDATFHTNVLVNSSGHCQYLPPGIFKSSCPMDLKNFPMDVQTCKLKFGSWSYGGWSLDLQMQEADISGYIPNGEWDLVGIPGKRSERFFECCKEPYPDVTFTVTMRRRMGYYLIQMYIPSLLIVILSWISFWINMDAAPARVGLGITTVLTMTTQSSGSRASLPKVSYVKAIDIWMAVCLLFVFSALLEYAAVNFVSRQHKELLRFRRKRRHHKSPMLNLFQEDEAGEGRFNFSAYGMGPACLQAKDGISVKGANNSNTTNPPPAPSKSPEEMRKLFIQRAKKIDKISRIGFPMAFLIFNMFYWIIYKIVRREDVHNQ

[2] = biological target: T2, CODA409 (Y210W in SEQ ID NO: 33) (human (chimera of human α7-nAChR and …))
T2 chain: T1 chain with F79R, F188W

[3] = biological target: T3, CODA333 (L131S in SEQ ID NO: 33) (human (chimera of human α7-nAChR and …))
T3 chain: T1 chain with F79R, L109S, F188Y

[4] = biological target: T4, CODA807 (Y115D, L131E in SEQ ID NO: 33) (human (chimera of human α7-nAChR and …))
T4 chain: T1 chain with F79R, Y93D, L109E, F188Y

[5] = biological target: T5, CODA1054 (R101M, L131F in SEQ ID NO: 33) (human (chimera of human α7-nAChR and …))
T5 chain: T1 chain with F79M, L109F, F188Y

[6] = biological target: T6, CODA283 (Y115E_N379K in SEQ ID NO: 33) (human (chimera of human α7-nAChR and …))
T6 chain: T1 chain with F79R, Y93E, F188Y, N357K

B1: α-bungarotoxin conjugated to Alexa Fluor 647 (ligand)
chain: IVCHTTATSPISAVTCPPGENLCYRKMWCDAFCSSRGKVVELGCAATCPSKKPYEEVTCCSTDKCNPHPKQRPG
Normalized AB % [1]: 0.55 ratio to SEQ ID NO: 33 control | Normalized AB MFI [1]: 0.57 ratio to SEQ ID NO: 33 control | Normalized AB % [2]: 0.88 ratio to SEQ ID NO: 33 control | Normalized AB MFI [2]: 0.62 ratio to SEQ ID NO: 33 control | Normalized AB % [3]: 1.28 ratio to SEQ ID NO: 33 control | Normalized AB MFI [3]: 1.2 ratio to SEQ ID NO: 33 control | Normalized AB MFI [4]: 1.14 ratio to SEQ ID NO: 33 control | Normalized AB % [5]: 0.82 ratio to SEQ ID NO: 33 control | Normalized AB MFI [6]: 1.31 ratio to SEQ ID NO: 33 control

Residue numbers refer to the chain shown, from its start.
